# Test results reported in publication PMC11826303.
# Amino acid sequences for entries named in this document (tags omitted).
# UniProt Q04206, whole entry: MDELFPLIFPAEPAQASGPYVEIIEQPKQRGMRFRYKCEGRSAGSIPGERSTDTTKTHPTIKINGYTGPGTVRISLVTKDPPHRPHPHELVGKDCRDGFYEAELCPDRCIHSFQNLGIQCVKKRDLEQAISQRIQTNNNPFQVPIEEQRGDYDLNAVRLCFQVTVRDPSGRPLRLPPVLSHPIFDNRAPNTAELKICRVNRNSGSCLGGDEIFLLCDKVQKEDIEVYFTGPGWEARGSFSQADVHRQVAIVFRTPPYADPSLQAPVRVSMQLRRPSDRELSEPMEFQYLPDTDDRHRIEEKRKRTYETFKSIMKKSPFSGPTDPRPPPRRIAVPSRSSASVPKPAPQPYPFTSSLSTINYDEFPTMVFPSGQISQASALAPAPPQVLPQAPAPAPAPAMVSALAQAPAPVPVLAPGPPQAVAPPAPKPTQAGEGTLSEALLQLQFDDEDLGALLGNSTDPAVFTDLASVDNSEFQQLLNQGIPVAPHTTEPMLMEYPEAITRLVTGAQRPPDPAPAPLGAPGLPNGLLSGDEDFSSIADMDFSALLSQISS
# The exact form of at least one protein or probe is not confirmed. Where cells or extracts were used, other partners may take part.
# Target: NF-kB p65 (RelA), endogenous in nuclear extract of TNF-alpha-stimulated RPTEC (UniProt Q04206)
# Test: EMSA supershift
# Conditions: TNF-alpha 1000 U/mL 30 min nuclear extract, p65 antibody; EMSA with 32P-labelled dsDNA and RPTEC nuclear extract (TNF-alpha 1000 U/mL, 30 min, 37 C stimulation); binding buffer; protein in an extract; label: 32P
sequence,measurement,value
AAGAATAGGGATTTCCCCAAATA (double strand) [BK1],binding result,binds
